# Experimental data from patent US11312773B2, “Anti-PD-L1 antibody” (Fuso Pharmaceutical Industries, Ltd., priority 2016, dated 2022).
# Tested on: BLV (bovine leukemia virus)
# Settings: BLV-infected calf, 1 mg/kg i.v., until end of test period
molecule,measurement,value
"ch4G12: rat-bovine chimeric anti-bovine PD-L1 antibody, 4G12 variable regions, mutated bovine IgG1 and Igλ constant regions; SEQ ID NOS: 105 and 106 (protein, chimeric L chain; chimeric H chain) light: MESQTHVLISLLLSVSGTYGDIAITQSPSSVAVSVGETVTLSCKSSQSLLYSENQKDYLGWYQQKPGQTPKPLIYWATNRHTGVPDRFTGSGSGTDFTLIISSVQAEDLADYYCGQYLVYPFTFGPGTKLELKQPKSPPSVTLFPPSTEELNGNKATLVCLISDFYPGSVTVVWKADGSTITRNVETTRASKQSNSKYAASSYLSLTSSDWKSKGSYSCEVTHEGSTVTKTVKPSECS heavy: MGWSQIILFLVAAATCVHSQVQLQQSGAELVKPGSSVKISCKASGYTFTSNFMHWVKQQPGNGLEWIGWIYPEYGNTKYNQKFDGKATLTADKSSSTAYMQLSSLTSEDSAVYFCASEEAVISLVYWGQGTLVTVSSASTTAPKVYPLSSCCGDKSSSTVTLGCLVSSYMPEPVTVTWNSGALKSGVHTFPAVLQSSGLYSLSSMVTVPGSTSGQTFTCNVAHPASSTKVDKAVDPTCKPSPCDCCPPPPVAGPSVFIFPPKPKDTLTISGTPEVTCVVVDVGHDDPEVKFSWFVDDVEVNTATTKPREEQFNSTYRVVSALRIQHQDWTGGKEFKCKVHNEGLPSSIVRTISRTKGPAREPQVYVLAPPQEELSKSTVSLTCMVTSFYPDYIAVEWQRNGQPESEDKYGTTPPQLDADSSYFLYSKLRVDRNSWQEGDTYTCVVMHEALHNHYTQKSTSKSAGK",BLV provirus load vs before administration,significantly decreased
